Measurements published in patent US20200277648A1, “Recombinant RNA-Dependent RNA Polymerase of RNA Viruses” (published 2020).

Sequences of proteins named here, by UniProt entry; tags and fusion partners are left off. A change or cut given only in a name is not applied to a line headed by its entry. Residues count along the entry.
UniProt P26663, 2420-3010 limits assumed: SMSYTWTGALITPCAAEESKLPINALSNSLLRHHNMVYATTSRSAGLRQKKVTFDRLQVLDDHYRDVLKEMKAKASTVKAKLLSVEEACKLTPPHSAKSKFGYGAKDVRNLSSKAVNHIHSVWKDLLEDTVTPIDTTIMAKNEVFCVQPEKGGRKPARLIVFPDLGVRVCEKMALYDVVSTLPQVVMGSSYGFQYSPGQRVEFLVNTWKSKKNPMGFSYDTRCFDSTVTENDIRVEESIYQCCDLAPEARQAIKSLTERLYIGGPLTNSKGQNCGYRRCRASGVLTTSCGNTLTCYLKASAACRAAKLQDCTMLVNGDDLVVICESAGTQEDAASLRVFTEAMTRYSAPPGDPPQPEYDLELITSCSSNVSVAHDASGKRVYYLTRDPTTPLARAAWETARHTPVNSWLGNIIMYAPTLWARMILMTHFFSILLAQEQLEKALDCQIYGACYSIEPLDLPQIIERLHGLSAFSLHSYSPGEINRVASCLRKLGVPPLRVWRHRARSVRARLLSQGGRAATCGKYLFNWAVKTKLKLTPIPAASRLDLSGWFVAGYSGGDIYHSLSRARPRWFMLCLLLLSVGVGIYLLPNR
UniProt Q32ZE1, 2517-3419 limits assumed: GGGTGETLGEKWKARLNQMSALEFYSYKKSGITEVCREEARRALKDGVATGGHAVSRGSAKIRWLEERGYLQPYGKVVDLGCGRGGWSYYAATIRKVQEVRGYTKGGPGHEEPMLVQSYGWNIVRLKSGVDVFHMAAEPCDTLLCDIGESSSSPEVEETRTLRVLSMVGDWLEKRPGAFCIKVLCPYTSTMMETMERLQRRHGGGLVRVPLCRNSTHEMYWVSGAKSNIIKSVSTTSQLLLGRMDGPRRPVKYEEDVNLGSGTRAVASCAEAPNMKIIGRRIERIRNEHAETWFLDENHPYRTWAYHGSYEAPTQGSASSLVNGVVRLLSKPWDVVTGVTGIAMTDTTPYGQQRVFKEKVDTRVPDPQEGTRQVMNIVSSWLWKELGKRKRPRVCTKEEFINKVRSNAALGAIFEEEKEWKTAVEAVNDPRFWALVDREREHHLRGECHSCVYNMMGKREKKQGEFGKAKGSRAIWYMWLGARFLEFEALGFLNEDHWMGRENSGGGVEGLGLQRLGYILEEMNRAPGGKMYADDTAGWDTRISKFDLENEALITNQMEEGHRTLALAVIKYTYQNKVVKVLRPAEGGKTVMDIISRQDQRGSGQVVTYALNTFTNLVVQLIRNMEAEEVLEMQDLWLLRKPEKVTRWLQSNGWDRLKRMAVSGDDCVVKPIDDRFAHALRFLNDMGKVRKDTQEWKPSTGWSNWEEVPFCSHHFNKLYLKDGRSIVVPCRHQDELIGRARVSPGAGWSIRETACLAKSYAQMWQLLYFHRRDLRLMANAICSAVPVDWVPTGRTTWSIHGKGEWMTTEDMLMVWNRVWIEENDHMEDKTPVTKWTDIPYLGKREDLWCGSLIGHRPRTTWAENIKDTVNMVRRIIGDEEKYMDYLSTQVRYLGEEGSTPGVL
UniProt Q05318: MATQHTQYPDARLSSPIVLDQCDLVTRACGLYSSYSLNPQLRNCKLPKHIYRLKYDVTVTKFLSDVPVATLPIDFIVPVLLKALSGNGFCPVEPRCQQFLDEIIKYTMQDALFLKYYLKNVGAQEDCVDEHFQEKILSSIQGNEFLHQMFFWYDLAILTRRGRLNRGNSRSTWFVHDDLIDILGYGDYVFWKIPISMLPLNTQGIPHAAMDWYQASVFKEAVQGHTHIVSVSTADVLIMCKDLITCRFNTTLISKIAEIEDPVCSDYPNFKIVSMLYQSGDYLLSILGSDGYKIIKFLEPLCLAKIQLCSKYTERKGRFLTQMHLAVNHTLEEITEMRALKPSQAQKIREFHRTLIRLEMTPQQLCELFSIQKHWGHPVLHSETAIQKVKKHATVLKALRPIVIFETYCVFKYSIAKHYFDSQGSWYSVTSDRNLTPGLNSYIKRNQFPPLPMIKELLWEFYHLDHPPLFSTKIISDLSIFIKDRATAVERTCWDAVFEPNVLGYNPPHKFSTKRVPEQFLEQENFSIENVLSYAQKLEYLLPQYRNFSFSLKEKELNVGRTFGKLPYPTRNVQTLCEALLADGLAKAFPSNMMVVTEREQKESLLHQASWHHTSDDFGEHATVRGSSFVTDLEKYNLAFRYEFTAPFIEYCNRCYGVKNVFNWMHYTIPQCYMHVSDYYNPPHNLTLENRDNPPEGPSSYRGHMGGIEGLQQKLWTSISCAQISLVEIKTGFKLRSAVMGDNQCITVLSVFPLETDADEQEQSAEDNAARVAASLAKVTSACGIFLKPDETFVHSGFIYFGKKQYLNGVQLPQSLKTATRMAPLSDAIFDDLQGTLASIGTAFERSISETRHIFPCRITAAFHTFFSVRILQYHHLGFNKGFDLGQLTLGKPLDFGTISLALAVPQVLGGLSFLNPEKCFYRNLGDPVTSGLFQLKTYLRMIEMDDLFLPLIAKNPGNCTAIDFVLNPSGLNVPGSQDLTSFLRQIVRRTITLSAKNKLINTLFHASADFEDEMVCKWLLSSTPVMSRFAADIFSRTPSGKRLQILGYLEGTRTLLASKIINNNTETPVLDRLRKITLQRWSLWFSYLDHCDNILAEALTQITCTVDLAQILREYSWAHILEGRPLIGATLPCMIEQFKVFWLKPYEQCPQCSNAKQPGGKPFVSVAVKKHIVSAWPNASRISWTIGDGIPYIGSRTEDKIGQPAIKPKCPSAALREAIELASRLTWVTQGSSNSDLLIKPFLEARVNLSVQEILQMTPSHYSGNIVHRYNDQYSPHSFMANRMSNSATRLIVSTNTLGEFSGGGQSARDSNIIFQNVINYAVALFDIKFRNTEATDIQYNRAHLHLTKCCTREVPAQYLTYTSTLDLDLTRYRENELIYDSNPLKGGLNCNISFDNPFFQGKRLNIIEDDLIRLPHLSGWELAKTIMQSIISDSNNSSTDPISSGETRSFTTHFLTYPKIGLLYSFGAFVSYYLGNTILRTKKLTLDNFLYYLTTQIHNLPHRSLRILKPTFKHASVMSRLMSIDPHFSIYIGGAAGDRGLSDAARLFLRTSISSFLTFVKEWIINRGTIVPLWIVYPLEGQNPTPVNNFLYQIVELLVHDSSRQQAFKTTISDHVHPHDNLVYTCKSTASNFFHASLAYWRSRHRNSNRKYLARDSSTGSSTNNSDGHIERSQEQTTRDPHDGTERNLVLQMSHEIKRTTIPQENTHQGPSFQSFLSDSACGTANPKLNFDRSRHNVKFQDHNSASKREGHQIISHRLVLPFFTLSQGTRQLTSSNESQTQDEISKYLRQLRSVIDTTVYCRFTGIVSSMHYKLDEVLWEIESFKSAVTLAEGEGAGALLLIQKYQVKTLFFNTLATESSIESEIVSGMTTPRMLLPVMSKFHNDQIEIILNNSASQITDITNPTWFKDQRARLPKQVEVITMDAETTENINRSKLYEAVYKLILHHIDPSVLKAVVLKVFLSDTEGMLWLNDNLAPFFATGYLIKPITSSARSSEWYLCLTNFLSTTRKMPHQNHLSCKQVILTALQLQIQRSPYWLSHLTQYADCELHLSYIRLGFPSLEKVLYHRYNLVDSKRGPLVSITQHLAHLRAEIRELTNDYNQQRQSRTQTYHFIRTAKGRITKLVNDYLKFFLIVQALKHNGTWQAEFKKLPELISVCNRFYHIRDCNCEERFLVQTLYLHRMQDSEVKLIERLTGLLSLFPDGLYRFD
UniProt P28887: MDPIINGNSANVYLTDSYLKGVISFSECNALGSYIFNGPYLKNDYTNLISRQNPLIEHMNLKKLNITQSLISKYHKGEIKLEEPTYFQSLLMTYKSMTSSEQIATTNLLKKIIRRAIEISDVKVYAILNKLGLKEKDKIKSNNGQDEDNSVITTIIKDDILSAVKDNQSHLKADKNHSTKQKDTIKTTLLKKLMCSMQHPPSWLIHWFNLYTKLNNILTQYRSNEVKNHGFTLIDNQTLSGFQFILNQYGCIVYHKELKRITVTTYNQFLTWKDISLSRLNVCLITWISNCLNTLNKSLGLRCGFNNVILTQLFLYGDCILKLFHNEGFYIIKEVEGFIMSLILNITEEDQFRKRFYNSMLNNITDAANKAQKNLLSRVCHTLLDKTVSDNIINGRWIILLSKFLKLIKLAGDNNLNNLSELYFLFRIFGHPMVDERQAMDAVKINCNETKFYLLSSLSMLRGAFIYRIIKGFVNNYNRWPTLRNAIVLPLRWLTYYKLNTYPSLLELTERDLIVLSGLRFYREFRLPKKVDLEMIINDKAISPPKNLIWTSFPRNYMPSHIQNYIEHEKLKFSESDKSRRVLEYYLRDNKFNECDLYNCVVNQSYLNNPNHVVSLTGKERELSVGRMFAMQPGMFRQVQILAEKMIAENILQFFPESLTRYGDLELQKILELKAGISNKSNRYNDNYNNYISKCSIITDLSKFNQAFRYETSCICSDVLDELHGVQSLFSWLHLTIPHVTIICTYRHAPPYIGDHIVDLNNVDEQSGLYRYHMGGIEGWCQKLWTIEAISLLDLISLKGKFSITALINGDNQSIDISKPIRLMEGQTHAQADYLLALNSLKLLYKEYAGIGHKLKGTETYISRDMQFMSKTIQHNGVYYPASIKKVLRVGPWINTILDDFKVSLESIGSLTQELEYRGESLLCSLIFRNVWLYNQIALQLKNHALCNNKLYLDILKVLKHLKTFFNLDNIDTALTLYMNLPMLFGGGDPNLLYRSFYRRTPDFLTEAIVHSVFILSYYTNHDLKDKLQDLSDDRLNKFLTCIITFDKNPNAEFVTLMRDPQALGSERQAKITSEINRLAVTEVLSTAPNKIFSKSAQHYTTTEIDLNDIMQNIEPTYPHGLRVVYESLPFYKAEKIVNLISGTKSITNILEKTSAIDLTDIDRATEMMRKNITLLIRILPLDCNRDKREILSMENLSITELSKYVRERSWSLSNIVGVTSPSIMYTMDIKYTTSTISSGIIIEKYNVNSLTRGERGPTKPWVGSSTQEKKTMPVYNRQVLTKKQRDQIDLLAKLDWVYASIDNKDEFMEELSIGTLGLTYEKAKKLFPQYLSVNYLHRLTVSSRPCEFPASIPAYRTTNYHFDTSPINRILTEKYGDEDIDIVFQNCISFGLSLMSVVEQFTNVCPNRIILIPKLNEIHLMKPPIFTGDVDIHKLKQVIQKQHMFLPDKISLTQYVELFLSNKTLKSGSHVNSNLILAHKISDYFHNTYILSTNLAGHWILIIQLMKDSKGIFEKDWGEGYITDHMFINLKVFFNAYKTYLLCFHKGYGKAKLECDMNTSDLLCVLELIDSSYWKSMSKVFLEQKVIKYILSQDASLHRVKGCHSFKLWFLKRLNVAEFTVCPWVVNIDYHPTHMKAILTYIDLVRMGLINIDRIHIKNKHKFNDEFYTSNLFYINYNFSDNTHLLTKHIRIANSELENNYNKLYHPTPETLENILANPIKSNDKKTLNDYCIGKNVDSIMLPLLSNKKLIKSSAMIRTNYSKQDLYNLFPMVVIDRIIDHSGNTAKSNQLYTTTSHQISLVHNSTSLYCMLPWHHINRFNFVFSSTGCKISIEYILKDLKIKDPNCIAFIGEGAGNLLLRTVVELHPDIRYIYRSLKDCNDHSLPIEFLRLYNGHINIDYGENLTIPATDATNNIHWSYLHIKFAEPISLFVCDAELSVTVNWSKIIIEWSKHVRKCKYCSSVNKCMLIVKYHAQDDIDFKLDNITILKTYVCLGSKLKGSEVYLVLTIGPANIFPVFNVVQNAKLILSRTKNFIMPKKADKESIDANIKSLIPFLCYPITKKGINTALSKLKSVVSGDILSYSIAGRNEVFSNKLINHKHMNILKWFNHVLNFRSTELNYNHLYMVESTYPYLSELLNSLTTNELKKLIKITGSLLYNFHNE

Experiments:
HCV RdRp = HCV RdRp (Hepatitis C virus genotype 1b, UniProt P26663); conditions: for Km / Vmax: Michaelis-Menten fit, 30-minute time point, MgCl2 5 mM; for Selectivity (CTP over analogue): incorporation at template position +4, ratio of efficiency of CTP incorporation to that of the analogue
Zika RdRp = Zika RdRp (Zika virus, UniProt Q32ZE1); conditions: for Km / Vmax: Michaelis-Menten fit, 30-minute time point, MnCl2 2.5 mM; for Selectivity (CTP over analogue): incorporation at template position +4, ratio of efficiency of CTP incorporation to that of the analogue
Ebola RdRp complex = Ebola RdRp complex (Zaire ebolavirus, UniProt Q05318); conditions: for Km / Vmax: Michaelis-Menten fit, 30-minute time point, MgCl2 5 mM; for Selectivity (CTP over analogue): incorporation at template position +4, ratio of efficiency of CTP incorporation to that of the analogue
RSV RdRp complex = RSV RdRp complex (Human respiratory syncytial virus A, UniProt P28887); conditions: for Km / Vmax: Michaelis-Menten fit, 30-minute time point, MgCl2 5 mM; for Selectivity (CTP over analogue): incorporation at template position +4, ratio of efficiency of CTP incorporation to that of the analogue
FluB RdRp complex = FluB RdRp complex (Influenza B virus (B/Memphis/13/2003), UniProt Q5V8Y6); conditions: for Km / Vmax: Michaelis-Menten fit, 30-minute time point, MnCl2 2.5 mM; for Selectivity (CTP over analogue): incorporation at template position +4, ratio of efficiency of CTP incorporation to that of the analogue
EBOV [1] = conditions: Warren et al. 2016; cited from earlier work
EBOV [2] = conditions: non-human primates; Warren et al. 2016; cited from earlier work
[3] = 5′-phosphorylated primer, FIG. 8

| Structure (SMILES) | Km (HCV RdRp) [µM] | Vmax (HCV RdRp) [p. frac.] | Km (Zika RdRp) [µM] | Vmax (Zika RdRp) [p. frac.] | Km (Ebola RdRp complex) [µM] | Vmax (Ebola RdRp complex) [p. frac.] | Km (RSV RdRp complex) [µM] | Vmax (RSV RdRp complex) [p. frac.] | Km (FluB RdRp complex) [µM] | Vmax (FluB RdRp complex) [p. frac.] | Sel. (efficiency of CTP / efficiency of analogue) (HCV RdRp) | Selectivity (CTP over analogue) (HCV RdRp) [fold] | Sel. (efficiency of CTP / efficiency of analogue) (Zika RdRp) | Selectivity (CTP over analogue) (Zika RdRp) [fold] | Sel. (efficiency of CTP / efficiency of analogue) (Ebola RdRp complex) | Selectivity (CTP over analogue) (Ebola RdRp complex) [fold] | Sel. (efficiency of CTP / efficiency of analogue) (RSV RdRp complex) | Selectivity (CTP over analogue) (RSV RdRp complex) [fold] | Sel. (efficiency of CTP / efficiency of analogue) (FluB RdRp complex) | Selectivity (CTP over analogue) (FluB RdRp complex) [fold] | other results |
| --- | --- | --- | --- | --- | --- | --- | --- | --- | --- | --- | --- | --- | --- | --- | --- | --- | --- | --- | --- | --- | --- |
| Nc1ccn([C@@H]2O[C@H](COP(=O)(O)OP(=O)(O)OP(=O)(O)O)[C@@H](O)[C@H]2O)c(=O)n1 | 0.0006 | 0.97 | 0.0032 | 0.96 | 1.2 | 0.82 | 0.049 | 0.70 | 0.0038 | 0.88 |  |  |  |  |  |  |  |  |  |  |  |
| Nc1ccn([C@@H]2O[C@H](COP(=O)(O)OP(=O)(O)OP(=O)(O)O)[C@@H](O)[C@@H]2O)c(=O)n1 | 0.059 | 0.95 | 0.026 | 0.95 | 3.2 | 0.77 | 0.035 | 0.74 | 0.077 | 0.77 | 100 | 100 | 8 | 8 | 3 | 3 | 0.68 | 0.7 | 23 | 23 | inhibition of RNA synthesis (chain-termination) after incorporation at position +4 (HCV RdRp; [3]): same pattern as the Ebola enzyme; inhibition of RNA synthesis (chain-termination) after incorporation at position +4 (Zika RdRp; 5′-phosphorylated primer, FIG. 8c): incomplete chain-termination; inhibition of RNA synthesis (chain-termination) after incorporation at position +4 (RSV RdRp complex; [3]): same pattern as the Ebola enzyme; inhibition of RNA synthesis (chain-termination) after incorporation at position +4 (FluB RdRp complex; [3]): same pattern as the Ebola enzyme |
| CCC(CC)COC(=O)[C@H](C)N[P@](=O)(OC[C@H]1O[C@@](C#N)(c2ccc3c(N)ncnn23)[C@H](O)[C@@H]1O)Oc1ccccc1 |  |  |  |  |  |  |  |  |  |  |  |  |  |  |  |  |  |  |  |  | inhibition of EBOV infection in cell culture (EBOV [1]): potent inhibitor; post-exposure protection (EBOV [2]): provided post-exposure protection |
| Nc1ccn([C@H]2C[C@H](O)[C@@H](COP(=O)(O)OP(=O)(O)OP(=O)(O)O)O2)c(=O)n1 | 0.34 | 0.84 | 0.25 | 0.83 | 63 | 0.59 | 0.45 | 0.27 | 0.01 | 0.38 | 654 | 654 | 90 | 90 | 73 | 73 | 24 | 24 | 6 | 6 |  |
